Test results from patent publication US20240209034A1 (priority 2021, published 2024).

Protein sequences, listed by entry. Tags and fused reporters are not part of them. Residues count along the entry.
UniProt P06756, 31-1048 limits assumed, chain 1 of 2: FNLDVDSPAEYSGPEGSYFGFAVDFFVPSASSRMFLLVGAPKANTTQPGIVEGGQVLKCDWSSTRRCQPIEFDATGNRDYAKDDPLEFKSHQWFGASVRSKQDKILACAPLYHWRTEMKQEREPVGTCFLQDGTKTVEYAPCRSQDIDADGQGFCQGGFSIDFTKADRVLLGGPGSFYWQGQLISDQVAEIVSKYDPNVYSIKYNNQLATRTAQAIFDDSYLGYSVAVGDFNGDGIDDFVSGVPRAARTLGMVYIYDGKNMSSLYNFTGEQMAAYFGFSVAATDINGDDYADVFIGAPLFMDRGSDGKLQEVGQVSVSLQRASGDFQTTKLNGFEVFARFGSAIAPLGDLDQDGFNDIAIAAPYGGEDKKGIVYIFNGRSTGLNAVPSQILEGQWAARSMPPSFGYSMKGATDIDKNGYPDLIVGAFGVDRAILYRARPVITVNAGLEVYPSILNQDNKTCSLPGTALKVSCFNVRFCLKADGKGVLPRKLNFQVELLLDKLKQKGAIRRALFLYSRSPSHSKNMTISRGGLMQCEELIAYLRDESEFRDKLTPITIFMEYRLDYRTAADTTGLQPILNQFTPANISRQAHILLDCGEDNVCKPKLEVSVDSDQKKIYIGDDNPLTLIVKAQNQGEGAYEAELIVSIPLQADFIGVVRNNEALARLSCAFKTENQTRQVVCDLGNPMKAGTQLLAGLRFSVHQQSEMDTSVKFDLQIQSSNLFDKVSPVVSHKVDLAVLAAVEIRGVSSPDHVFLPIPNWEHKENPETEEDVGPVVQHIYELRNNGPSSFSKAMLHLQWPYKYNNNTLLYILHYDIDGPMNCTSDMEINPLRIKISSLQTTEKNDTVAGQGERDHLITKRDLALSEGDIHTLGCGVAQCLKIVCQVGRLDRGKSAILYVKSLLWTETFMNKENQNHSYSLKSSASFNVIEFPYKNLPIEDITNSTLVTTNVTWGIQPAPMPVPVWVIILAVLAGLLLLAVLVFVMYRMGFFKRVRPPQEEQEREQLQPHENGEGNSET

Biological target: integrin αvβ6 (UniProt P06756)
Experiment: flow cytometry on K562 αvβ6:mCherry cells, apparent KD from Hill fit, mean±s.d.

For A20FMDV2 (peptide), the Kd was 63.1 nM.
